Measured values from several laboratories, pooled; numbers as filed in NIAID ChemDB.

Shared fields: enzyme or target tests; organism: Human cytomegalovirus; endpoint: IC50

ICn: concentration for n% inhibition.

compound	target	method	result
CCCCCc1cc(OC(=O)c2c(O)cc(OC(=O)c3c(O)cc(O)cc3CCC)cc2CCC)cc(O)c1C(=O)O	HCMV protease	scintillation proximity / radiometric	11 µM
NC(=O)c1ccc[n+]([C@@H]2O[C@H](COP(=O)([O-])OP(=O)(O)OC[C@H]3O[C@@H](n4cnc5c(N)ncnc54)[C@H](O)[C@@H]3O)[C@@H](O)[C@H]2O)c1	Protease		>>20 µM
CCOC(=O)N1CCC(Nc2nnc(NC(=O)c3c(Cl)cccc3Cl)s2)CC1	Polymerase		<25 µM
CC(O)(C(=O)O)P(=O)(O)O	DNA polymerase		500 µM
Cc1cc2nc3c(=O)[nH]c(=O)nc-3n(CC(O)C(O)C(O)COP(=O)(O)OP(=O)(O)OCC3OC(n4cnc5c(N)ncnc54)C(O)C3O)c2cc1C	Protease		>>40 µM
O=C(O)CP(=O)(O)O	DNA polymerase		0.4 µM
Cc1nc2nncnn2c(=O)c1C	Protease		0.3 µM
O=P(O)(O)CP(=O)(O)O	DNA polymerase		>500 µM
O=C(Nc1nnc(NCCCCc2ccccc2)s1)c1ccc(S(=O)(=O)F)cc1	Polymerase		>25 µM
O=P(O)(O)P(=O)(O)O	DNA polymerase		150 µM
CCCCCCCCCCCNc1nnc(NC(=O)c2ccc(F)cc2F)s1	Polymerase		<25 µM
CC(O)(P(=O)(O)O)P(=O)(O)O	DNA polymerase		>500 µM
CCOc1ccc2ccccc2c1C(=O)Nc1nnc(NCCc2ccccc2)s1	Polymerase		>25 µM
O=P(O)(O)OP(=O)(O)O	DNA polymerase		500 µM
CCOc1ccc2ccccc2c1C(=O)Nc1nnc(NC2CCc3ccccc32)s1	Polymerase		<25 µM
N#CCCn1c2ccccc2c2c3c(c4c5ccccc5[nH]c4c21)C(=O)NC3	HCMV protein kinase pUL97		0.0428 µM
N#Cc1ccc(C(=O)Nc2nnc(NCCC(c3ccccc3)c3ccccc3)s2)cc1	Polymerase		<25 µM
Cn1c2ccccc2c2c3c(c4c5ccccc5n(CCC#N)c4c21)CNC3=O	HCMV protein kinase pUL97		0.24 µM

The last 2 rows once more:

compound	target	method	result
N#Cc1ccc(C(=O)Nc2nnc(NCCC(c3ccccc3)c3ccccc3)s2)cc1	Polymerase		<25 µM
Cn1c2ccccc2c2c3c(c4c5ccccc5n(CCC#N)c4c21)CNC3=O	HCMV protein kinase pUL97		0.24 µM

Conditions beyond the fields shown may differ between rows. Blank or dashed fields: not listed here.